Assay results published in PubChem BioAssay AID1706 (The Scripps Research Institute Molecular Screening Center, 2009).
Values joined by “and” are separate entries in the source; they are usually repeats but may differ in a detail not shown here. Equal values may be shown once. This is a selection; strong and weak results do not stand in their true shares. Active and inactive are the calls of the source. Rule as the data show it: active = inhibition above about 12%; inactive = the rest.

target: Replicase polyprotein 1ab (Severe acute respiratory syndrome coronavirus) (UniProt P0C6X7); assay: blockers of SARS 3CLpro peptide cleavage – biochemical, quenched FRET, primary screen (AID 1706); conditions: recombinant SARS-CoV 3CLpro, at 6 µM, stronger effect = higher value

SMILES | inhibition
CC(C)CC(=O)NC(Sc1ccc(Cl)cc1)C(Cl)(Cl)Cl (configuration not stated) | inactive: 3.86%
Nc1cc(N)c2nonc2c1[N+](=O)[O-] | inactive: 1.47%
Cc1c2non([O-])c-2c(C)[n+](=O)[n+]1[O-] | inactive: -3.21%
O=C(NC(Sc1ccncn1)C(Cl)(Cl)Cl)c1ccccc1 (configuration not stated) | inactive: -3.29%
Oc1ccccc1CNc1ccccn1 | inactive: -3.35%
Cc1ccc(OP(=O)(Nc2nccs2)Oc2ccc(C)cc2)cc1 | inactive: -0.91%
COc1ccccc1OP(=O)(Nc1ccc(C)cn1)Oc1ccccc1OC | inactive: 4.22%
Clc1ccc(Cl)c(NC2=NCC(CBr)S2)c1 (configuration not stated) | inactive: 0.08%
CN1CCCC(OC(=O)C(c2ccccc2)c2ccccc2)C1 (configuration not stated) | inactive: 1.93%
NC(=O)c1cc([N+](=O)[O-])cc([N+](=O)[O-])c1N | inactive: 2.95%
Cc1ccc(N/C(=N/P(=O)(N2CCOCC2)N2CCOCC2)N2CCOCC2)cc1 | inactive: -2.26%
CCN(N=Nc1nonc1N)c1nonc1N | inactive: 4.82%
Nc1cccc2ccc([As](=O)(O)O)cc12 | inactive: 3.07%
O=[N+]([O-])c1cc([N+](=O)[O-])c(CCN2CCOCC2)c([N+](=O)[O-])c1 | inactive: -2.46%
Cc1ccc(NP(=O)(Oc2ccccc2F)Oc2ccccc2F)nc1 | inactive: 0.99%
CCOP(=O)(Nc1ccccc1)OCC | inactive: 2.22% and inactive: 0.39%
Cc1cc(SC(NC(=O)c2ccc(F)cc2)C(Cl)(Cl)Cl)ncn1 (configuration not stated) | inactive: 0.7%
O=C(O)c1ccccc1[As](=O)(O)O | inactive: 0.67%
CC(=O)Nc1ccc([As](=O)(O)O)cc1 | inactive: -1.23%
O=P(Nc1nc2ccc(Cl)cc2s1)(c1ccccc1)c1ccccc1 | inactive: -0.74%
O=[N+]([O-])c1cccc(NC2=NCC(CBr)S2)c1 (configuration not stated) | inactive: 0.36%
O=C(O)CNc1ccc([As](=O)(O)O)cc1 | inactive: 5.21%
CC(C)(C)C(=O)NC(Sc1ccncn1)C(Cl)(Cl)Cl (configuration not stated) | inactive: 5.28%
O=[N+]([O-])c1ncn(CCn2ncnc2[N+](=O)[O-])n1 | inactive: 0.34%
O=C(Nc1cc([As](=O)(O)O)ccc1O)c1ccccc1 | inactive: -1.26%
CN(C)C(=O)OCCc1n(C)cc[n+]1C | inactive: -2.74%

SMILES | inhibition
CC(C)=N/N=C(\N)N[N+](=O)[O-] | inactive: -2.44%
CC1CCN(C(=O)Oc2c(Cl)cc(Cl)c3cccnc23)CC1 | inactive: -0.16%
C[N+]1=C2C=CC=CC=C2SC12C([N+](=O)[O-])=CC([N+](=O)[O-])=C[C-]2[N+](=O)[O-] (configuration not stated) | inactive: 6.53%
Nc1ccc([As](=O)(O)c2ccc(N)cc2)cc1 | inactive: 1.31%
CCN(/C(=N/P(=O)(N1CCOCC1)N1CCOCC1)N1CCOCC1)c1ccc(OC)cc1 | inactive: 2.99%
O=[N+]([O-])c1cccc2n[nH]nc12 | inactive: -0.91%
CC(=O)N1C2C3N(C(C)=O)C1C1N(C(C)=O)C(C(N1C(C)=O)N3C(C)=O)N2C(C)=O | inactive: -6.24%
CCc1nc2c(n1)c1c(non1O)c1c2no[n+]1[O-] | inactive: -4.49%
O=[N+]([O-])c1cc([N+](=O)[O-])c(CCNc2ccccc2)c([N+](=O)[O-])c1 | inactive: -1.56%
Cc1ccc(NP(=O)(Oc2ccccc2)Oc2ccccc2)nc1 | inactive: 4.61%
COc1ccc(C2=NCC(CBr)S2)cc1 (configuration not stated) | inactive: 5.27%
c1nnnn1CCn1cnnn1 | inactive: 0.79%
CC(C)C(=O)NC(Sc1ccccc1)C(Cl)(Cl)Cl (configuration not stated) | inactive: 7.38%
O=P(Nc1nccs1)(c1ccccc1)c1ccccc1 | inactive: 0.44%
Nc1ccc([As](=O)(O)c2ccc([N+](=O)[O-])cc2)cc1 | inactive: 6.26%
C(Cc1nn[nH]n1)Cc1nn[nH]n1 | inactive: -3.58%
O=C(OC1CN2CCC1CC2)c1cccc(Cl)c1 (configuration not stated) | inactive: 2.04%
O=[N+]([O-])c1ccc(O)c(/C=N/Nc2ccc([N+](=O)[O-])cc2[N+](=O)[O-])c1 | inactive: 7.75%
O=[N+]([O-])c1ncn(CCn2cnc([N+](=O)[O-])n2)n1 | inactive: 1.28%
CC(=O)NC(SC(=S)N(C)C)C(Cl)(Cl)Cl (configuration not stated) | inactive: 1.35%
O=[As](O)(c1ccccc1)c1ccc(O)cc1 | inactive: -3.44%
O=P(Nc1nc2ccccc2s1)(c1ccccc1)c1ccccc1 | inactive: 2.91%
O=P(Nc1ccccn1)(c1ccc(Br)cc1)c1ccc(Br)cc1 | inactive: -0.17%
CN(C)C1(CNC(=O)c2ccc(Cl)c(S(N)(=O)=O)c2)CCCCC1 | inactive: 2.57%
CN(C)C(=O)Oc1noc2ccccc12 | inactive: 4.95%
O=c1c2cc([N+](=O)[O-])ccc2[nH]c2c([N+](=O)[O-])cc([N+](=O)[O-])cc12 | inactive: 4.66%

SMILES | inhibition
Cc1ccccc1OP(=O)(Nc1ccccn1)Oc1ccccc1C | inactive: 1.23%
Cc1ccc(OP(=O)(Nc2ccccn2)Oc2ccc(C)cc2)cc1 | inactive: 3.31%
CC(=O)NC(SC(=S)N(CC(C)C)CC(C)C)C(Cl)(Cl)Cl (configuration not stated) | inactive: -2.06%
COC(=O)c1cc2c(s1)N=C(c1ccccc1)N(C)P2(=O)N1CCOCC1 (configuration not stated) | inactive: 0.58%
CCC(=O)N1C2C3N(C(=O)CC)C1C1N(C(=O)CC)C(C(N1C(=O)CC)N3C(=O)CC)N2C(=O)CC | inactive: 2.4%
O=C(OC1CN2CCC1CC2)c1ccccc1 (configuration not stated) | inactive: 0.26%
CCNC(=S)/N=C(\N)N[N+](=O)[O-] | inactive: 0.98%
O=C(NC1CCS(=O)(=O)C1)NP(=S)(Oc1ccccc1)Oc1ccccc1 (configuration not stated) | inactive: 5.21%
CCOC(=O)NC(Sc1ccccc1)C(Cl)(Cl)Cl (configuration not stated) | inactive: 5.16%
Cc1ccc(NP(=O)(Oc2cccc(C)c2)Oc2cccc(C)c2)nc1 | inactive: -2.61%
c1ccc(-c2nn[nH]n2)c(-c2nn[nH]n2)c1 | inactive: 4.34%
CC(=O)Nc1ccc(Oc2c([N+](=O)[O-])cc([N+](=O)[O-])cc2[N+](=O)[O-])cc1 | inactive: 1.86%
CC(=O)Nc1ccc([As](=O)(O)O)c(O)c1 | inactive: 4.51%
CC(=O)c1ccc(N2CC2c2ccncc2)cc1 (configuration not stated) | inactive: -3.12%
CC(C)(C)C(=O)NC(Sc1ccccc1)C(Cl)(Cl)Cl (configuration not stated) | inactive: 7%
CCOc1ccc(C2=NCC(CBr)S2)cc1 (configuration not stated) | inactive: -3.54%
O=P1(Nc2nc3ccc(Cl)cc3s2)COc2ccccc2O1 (configuration not stated) | inactive: 0.78%
CCOP(=O)(Nc1cccc2ccccc12)OCC | inactive: 1.98%
COc1cc(C2NCCC3(OCCO3)C2(C)C)cc(OC)c1OC (configuration not stated) | inactive: 0.17%
CCCOP(=S)(Nc1nc(N)cc(=O)[nH]1)OCCC | inactive: 0.39%
Nc1cccc2c([As](=O)(O)O)cccc12 | inactive: -2.22%
Cc1ccc(NCCc2c([N+](=O)[O-])cc([N+](=O)[O-])cc2[N+](=O)[O-])cc1 | inactive: -0.33%
O=[As](O)(c1cccc(O)c1)c1cccc(O)c1 | inactive: -0.4%
Cc1cccc(OCC(=O)OC2CN3CCC2CC3)c1 (configuration not stated) | inactive: 4.74%
CS(=O)(=O)c1ccc(Cl)c(NC(=O)COC(=O)C(O)(c2ccccc2)c2ccccc2)c1 | inactive: -0.4%
COc1cc(C(=O)NCC2(N3CCOCC3)CCCCC2)cc(Cl)c1OC(C)C | inactive: -2.88%

SMILES | inhibition
O=[As](O)(O)c1cccnc1 | inactive: -3.84%
O=C(OC1CN2CCC1CC2)c1ccc(Cl)cc1 (configuration not stated) | inactive: -2.11%
O=[N+]([O-])c1ccc2c(c1)nnn2O | inactive: 0.55%
CCOP1(=S)c2c(C)nn(CCC#N)c2N=C(c2ccc(F)cc2)N1C (configuration not stated) | inactive: 4.21%
Nc1ccccc1[As](=O)(O)c1ccccc1 | inactive: -4.63%
O=C(O)COc1ccc([As](=O)(O)O)cc1[N+](=O)[O-] | inactive: -6.83%
CS(=O)(=O)c1cc([N+](=O)[O-])c2no[n+]([O-])c2c1 | inactive: 0.43%
O=P(Nc1nccs1)(c1ccccc1)c1nc2ccccc2s1 (configuration not stated) | inactive: -1.36%
O=P(Nc1nccs1)(Oc1ccccc1)Oc1ccccc1 | inactive: -0.43%
CCOP1(=S)c2c(C)nn(CCC#N)c2N=C(c2ccccc2F)N1C (configuration not stated) | inactive: -1.77%
O=P1(Nc2ccc(Br)cn2)COc2ccccc2OC1 | inactive: -3.37%
O=[As](O)(c1cccs1)c1cccs1 | inactive: 2.53%
Cc1ccc(OCC(=O)OC2CN3CCC2CC3)cc1 (configuration not stated) | inactive: 0.21%
Nc1cccc([As](=O)(O)c2ccccc2)c1 | inactive: 0.56%
O=P1(Nc2ncccn2)COc2ccccc2OC1 | inactive: -3.9%
O=C(/C=C/c1ccccc1)OC1CN2CCC1CC2 (configuration not stated) | inactive: -0.87%
CN(C)C1(CNC(=O)c2ccc(S(C)(=O)=O)cc2)CCCCC1 | inactive: 4.94%
CC1CCC(C(C)C)C(OP(=O)(Nc2ccccn2)c2ccccc2)C1 (configuration not stated) | inactive: 4.45%
Cc1ccc(C(=O)OC2CN3CCC2CC3)cc1 (configuration not stated) | inactive: 3.12%
Cc1nn(-c2ccccc2)c2c1P(=O)(N1CCOCC1)N(C)C(c1ccccc1)=N2 (configuration not stated) | inactive: -2.69%
CC1(CBr)Cn2c(nc3ccccc3c2=O)S1 (configuration not stated) | inactive: -6.28%
O=[As](O)(c1ccccc1Br)c1ccccc1Br | inactive: 3.23%
CC(C)/C=N\N=C(\N)N[N+](=O)[O-] | inactive: 0.47%
CN(C(=O)Cc1ccc(Cl)c(Cl)c1)[C@@H]1CCCC[C@H]1N1CCCC1 | inactive: 0.93%
